Results of unrelated studies side by side (data: NIAID ChemDB).

Common to all: cytotoxicity tests; cells: VERO; read-out: CC50

Conditions beyond the fields shown may differ between rows. An empty or dashed field is not shown. CCn is the concentration with n% toxicity to the cells.

CCCCCCCCCCCCCCC[C@H](O)CCC[C@H]1CC=CC(=O)O1 ; value: 2.88 µg/mL
O=C(Nc1cccc(F)c1)c1ccc([N+](=O)[O-])o1 ; value: 9.29 µg/mL
COc1nsc(-c2ccccc2)c1C#N ; value: 25 µM
C[C@@]1(O)[C@@H](CO)O[C@@H](n2cnc3c(N)ncnc32)[C@@H]1O ; value: 20 µg/mL
FC(F)(F)c1cc(Cl)c2cc(-c3ccccc3)cn2c1 ; method: MTT ; value: >500 µM
CCCCCCCC(=O)N1CC2=C(C(=O)O1)N1C(=O)[C@@H](NC(=O)Cc3ccccc3)C1SC2 ; value: 19.5 µM
COc1cccc([C@H](c2cc3cc(Br)ccc3nc2OC)[C@@](O)(CCN(C)C)c2cccnc2C)c1OC ; value: >10 µg/mL
Cc1cn2c(C(=O)NCc3ccc(N4CCN(c5ccc(S(F)(F)(F)(F)F)cc5)CC4)c(F)c3)c(C)nc2s1 ; value: >32 µM
Cc1nc(CC(=O)NN)nn1C ; value: 400 µg/mL
COc1ccc(C(=O)N(O)CC2=C(C(=O)O)N3C(=O)[C@@H](NC(=O)Cc4ccccc4)C3SC2)cc1 ; value: >128 µM
N#Cc1c(-c2ccccc2)s[nH]c1=S ; value: 60 µM
CCCCCCCCCCCCCCC[C@H](O)CCC[C@H](O)C[C@H]1CC=CC(=O)O1 ; value: 2.2 µg/mL
CCCCCCCC(=O)N(O)CC1=C(C(=O)O)N2C(=O)[C@@H](NC(=O)Cc3ccccc3)C2SC1 ; value: 14.6 µM
COc1cc2c(cc1OC)C(=O)[C@]1(C2)[C@@H](c2ccccc2)[C@@H]2CSCN2[C@@]12C(=O)N(N1CCOCC1)c1ccccc12 ; method: MTT ; value: >62.5 µg/mL
CCCCCCCCCCCCCCC[C@H](O)C[C@H](O)C[C@H](O)C[C@H]1CC=CC(=O)O1 ; value: 8.34 µg/mL
COc1ccccc1-c1nc2cc3ncccc3cc2[nH]1 ; method: MTT ; value: >75 µM
CC(=O)c1c(-c2ccc(Cl)c(Cl)c2)cc2ccccn12 ; method: MTT ; value: 162 µM
COc1ccc(C(=O)N2CC3=C(C(=O)O2)N2C(=O)[C@@H](NC(=O)Cc4ccccc4)[C@H]2SC3)cc1 ; value: >128 µM
O=C(NCc1ccco1)c1ccc([N+](=O)[O-])o1 ; value: 4.08 µg/mL
O=c1ccnc2c(Cl)c3[nH][nH]nc3cc12 ; method: MTT ; value: >100 µM
COc1ccnc([C@](O)(CCN(C)C)[C@@H](c2cc3cc(C#N)ccc3nc2OC)c2cccc(OC)c2F)c1 ; value: >10 µg/mL
CCn1nc(-c2ccc(Cn3ccc4ccccc43)cc2)nc1C ; value: ≥80 µg/mL
COc1cc2c(cc1OC)C(=O)[C@]1(C2)[C@@H](c2ccccc2Cl)[C@@H]2CSCN2[C@@]12C(=O)Nc1ccc(OC(F)(F)F)cc12 ; method: MTT ; value: >62.5 µg/mL
O=C(Nc1cccnc1)c1ccc([N+](=O)[O-])o1 ; value: 12.83 µg/mL
Cc1ccc2nc(C)c(C(=O)NCc3ccc(S(F)(F)(F)(F)F)cc3)n2c1 ; value: >32 µM
Nc1ncnc2c1ncn2C[C@H](O)CO ; value: >400 µg/mL
Nc1cccc(-c2cn(CC(Oc3ccc(Cl)cc3)c3ccc(Cl)cc3Cl)nn2)c1 ; method: MTT ; value: >50 µg/mL
Fc1cccn2cc(-c3ccccc3)cc12 ; method: MTT ; value: >500 µM
CCc1nc2sc(C)cn2c1C(=O)NCc1ccc2c(c1)CCO2 ; value: >32 µM
CC(C)(C)c1cn(CC(Oc2ccc(Cl)cc2)c2ccc(Cl)cc2Cl)nn1 ; method: MTT ; value: >25 µg/mL
CN[C@@H]1[C@H](O[C@@H]2OC[C@@H](O)[C@H](O)[C@H]2O)[C@@H](O)[C@H](O[C@H]2c3cc(C)c(C(=O)N[C@H](C)C(=O)O)c(O)c3-c3c(cc4c(c3O)C(=O)c3cc(OC)cc(O)c3C4=O)[C@@H]2O)O[C@@H]1C ; value: >100 µg/mL
Cc1ccn2c(C(=O)NCc3ccc(N4CCS(=O)(=O)CC4)c(F)c3)c(C)nc2c1 ; value: >32 µM
c1csc(-c2cc3ccccn3c2)c1 ; method: MTT ; value: 90 µM
CSc1nsc(-c2ccc3ccccc3c2)c1C#N ; value: 20 µM
N#Cc1ccc(NC(=O)c2ccc([N+](=O)[O-])o2)cc1 ; value: 3.53 µg/mL
CCn1nc(CC(=O)N/N=C/c2ccco2)nc1C ; value: 400 µg/mL
Cc1nc2ccc(Cl)cn2c1C(=O)NCc1ccc(N2CCOCC2)c(F)c1 ; value: >32 µM
CC1(C)[C@@H](CO)CC[C@@]1(C)Cn1cnc2c(Cl)ncnc21 ; value: >400 µg/mL
Cc1ccn2c(C(=O)NCc3ccc(N4CCSCC4)c(F)c3)c(C)nc2c1 ; value: >32 µM
Nc1ncnc2c1ncn2[C@@H]1O[C@H](CO)[C@](O)(C(F)(F)F)[C@H]1O ; value: >200 µg/mL
Cc1cc(C)n2cc(-c3ccccc3)cc2c1 ; method: MTT ; value: >500 µM
COc1cc2c(cc1OC)C(=O)[C@]1(C2)[C@@H](c2ccc(F)cc2)[C@@H]2CSCN2[C@@]12C(=O)Nc1ccc(OC(F)(F)F)cc12 ; method: MTT ; value: >62.5 µg/mL
FC(F)(F)Oc1ccc(-c2cc3ccccn3c2)cc1 ; method: MTT ; value: 100 µM
CCc1nc2ccc(Cl)cn2c1C(=O)NCc1ccc(N2CCS(=O)(=O)CC2)cc1 ; value: >32 µM
COc1cccc([C@H](c2cc3cc(C#N)ccc3nc2OC)[C@@](O)(CCN(C)C)c2ncccc2C)c1F ; value: >10 µg/mL
Fc1cccc(-c2cc3ccccn3c2)c1 ; method: MTT ; value: 100 µM
COc1cccc([C@H](c2cc3cc(C#N)ccc3nc2OC)[C@@](O)(CCN(C)C)c2ccc(C)nc2)c1F ; value: >10 µg/mL
C[C@@H](NC(=O)c1ccc([N+](=O)[O-])o1)c1ccccc1 ; value: 23.59 µg/mL
Brc1sccc1-c1cc2ccccn2c1 ; method: MTT ; value: 500 µM
CCn1nc(Cc2n[nH]c(=S)o2)nc1C ; value: ≥400 µg/mL
COc1cc2c(cc1OC)C(=O)[C@]1(C2)[C@@H](c2ccc(F)cc2)[C@@H]2CSCN2[C@@]12C(=O)N(N1CCOCC1)c1ccccc12 ; method: MTT ; value: >62.5 µg/mL
Cc1ccc2nc(C)c(C(=O)NCc3ccc(N4CCS(=O)(=O)CC4)cc3)n2c1 ; value: >32 µM
CCOC(=O)c1nc(C)c2c(c1N)C(=O)N(Cc1ccccc1)C2O ; method: MTT ; value: >100 µM
CC1(C)[C@@H](CO)CC[C@@]1(C)Cn1nnc2c(N)ncnc21 ; value: >400 µg/mL
CCn1nc(CC(=O)NN=C(C)C)nc1C ; value: 400 µg/mL
CC1(C)[C@@H](CO)CC[C@@]1(C)Cn1nnc2c(Cl)ncnc21 ; value: >400 µg/mL
N#Cc1c(Cl)nsc1Cl ; value: 4 µM
Clc1ccc(-c2cc3ccccn3c2)c(Cl)c1 ; method: MTT ; value: >500 µM

A second listing of 6 rows from above:

SMILES | method | value
CCCCCCCC(=O)N1CC2=C(C(=O)O1)N1C(=O)[C@@H](NC(=O)Cc3ccccc3)C1SC2 |  | 19.5 µM
FC(F)(F)Oc1ccc(-c2cc3ccccn3c2)cc1 | MTT | 100 µM
Nc1cccc(-c2cn(CC(Oc3ccc(Cl)cc3)c3ccc(Cl)cc3Cl)nn2)c1 | MTT | >50 µg/mL
FC(F)(F)c1cc(Cl)c2cc(-c3ccccc3)cn2c1 | MTT | >500 µM
CSc1nsc(-c2ccc3ccccc3c2)c1C#N |  | 20 µM
O=c1ccnc2c(Cl)c3[nH][nH]nc3cc12 | MTT | >100 µM